biological target: Protein-L (UniProt Q51918); assay: SPR

How did the other turn out when ^CPMV2G12HEL (antibody) was run?
The other was 81.1%.

For ^HT2G12HL (antibody), which other is on record?
Its other is 102%.

^HT2G12HEL (antibody) was tested. Which other did it give?
Its other is 92.4%.

^CPMV2G12HL (antibody) was tested. Which other did it give?
Its other is 98.8%.
